A mixed list of measured activities; the numbers were collected in NIAID ChemDB.

All rows: tests in culture

ECn: concentration that inhibits the pathogen or its effect by n%. Inhibition is in % at the dose shown (toxicity tests: loss of growth or viability). Fold resistance has wild type as its base. a–b is a range or a potency band. Zone: diameter of growth inhibition. Blank or dashed fields: not listed here. Lines come from different laboratories, so protocols vary. A number after MIC or MFC names an inhibition level or a share of isolates.

smiles,species,cell line,measure,dose,mutations,strain,method,result
Cc1ccc(N2NOC(=O)C2S(=O)(=O)Nc2nc(-c3ccc([N+](=O)[O-])cc3)cs2)cc1,Aspergillus clavatus,,MIC,,,MTCC323,broth dilution,1000 µg/mL
O=C(O)P(=O)(O)O,Mouse cytomegalovirus,C1271,EC50,,,WILD TYPE,plaque count,90 µM
Nc1ncc2ncn(CCOCP(=O)(O)O)c2n1,Cytomegalovirus,HEL,EC50,,,AD169,plaque count,200 µg/mL
Nc1nc2c(ncn2COC(COCP(=O)(O)O)COCP(=O)(O)O)c(=O)[nH]1,Mouse cytomegalovirus,C1271,EC50,,,WILD TYPE,plaque count,0.6 µM
C[C@@H]1[C@H](O)[C@@H](C)/C=C/C=C/CC/C=C/C=C/C=C/C=C/C(O[C@H]2O[C@H](C)[C@@H](O)[C@H](N)[C@@H]2O)CC2O[C@](O)(CC(O)C(O)CCC(O)CC(O)CC(O)CC(=O)O[C@H]1C)CC(O)C2C(=O)O,Aspergillus clavatus,,zone,250 µg/mL,,MTCC323,agar diffusion,26 mm
Nc1nc2c(ncn2COC(CO)CO)c(=O)[nH]1,Mouse cytomegalovirus,C1271,EC50,,,HPMPC-resistant,plaque count,11 µM
CCN1CCN(C(=O)N[C@@H](C(=O)N[C@@H]2C(=O)N3[C@@H]2SC(C)(C)[C@@H]3C(=O)O)c2ccccc2)C(=O)C1=O,Pseudomonas aeruginosa,,MIC,,,S10,,2 µg/mL
Cc1ccc(N2NOC(=O)C2S(=O)(=O)Nc2nc(-c3ccc(Cl)cc3)cs2)cc1,Aspergillus clavatus,,zone,250 µg/mL,,MTCC323,agar diffusion,20 mm
O=c1[nH]cnc2c1ncn2C[C@@H](CO)OCP(=O)(O)O,Cytomegalovirus,HEL,EC50,,,DAVIS,cytopathic effect,>400 µg/mL
COc1ccc(-c2csc(NS(=O)(=O)C3C(=O)ONN3c3ccc(C)cc3)n2)cc1,Aspergillus clavatus,,MIC,,,MTCC323,broth dilution,500 µg/mL
C#C[C@]1(CO)O[C@@H](n2cnc3c(N)nc(F)nc32)CC1O,HIV-2,MAGIC-5A,fold resistance,,K65R K70R Q151M M184V,ROD9,β-galactosidase / absorbance,17
C[C@@H](O)[C@H]1C(=O)N2C(C(=O)O)=C(S[C@H]3C[C@@H](C(=O)N4CC[C@H](NC(=O)CN=C(N)N)C4)N(C)C3)[C@H](C)[C@H]12,Pseudomonas aeruginosa,,MIC,,,S10,,1 µg/mL
Nc1ccn([C@H]2CC[C@@H](CO)O2)c(=O)n1,Adenovirus,HEL,EC50,,,TYPE 2,cytopathic effect,1.4 µM
c1cc(CN2CCCNCCNCCCNCC2)ccc1CN1CCCNCCNCCCNCC1,HIV-1,PBMC,inhibition,0.1 µM,,CM7 CLADE C R5,p24,19%
CC(=O)N[C@@H](CC(C)C)C(=O)N[C@@H](CC(C)C)C(=O)N[C@H](C=O)CCCN=C(N)N,Cryptosporidium parvum,,inhibition,10 µg/mL,,,,35.2%
Nc1ccn(C[C@@H](CO)OCP(=O)(O)O)c(=O)n1,Mouse cytomegalovirus,C1271,EC50,,,Ganciclovir-resistant,plaque count,1.8 µM
CC(=O)NC[C@H]1CN(c2ccc(N3CCOCC3)c(F)c2)C(=O)O1,Streptococcus pneumoniae,,MIC50,,,Penicillin-susceptible,,0.5 µg/mL
Nc1nc2c(ncn2CCOCP(=O)(O)O)c(=O)[nH]1,Cytomegalovirus,HEL,EC50,,,AD169,plaque count,0.1 µg/mL
C#CC[C@@H](C(=O)N[C@H](/C=C/C(=O)OCC)C[C@@H]1CCNC1=O)n1cccc(NC(=O)c2cc(C)on2)c1=O,Rhinovirus,H1-HELA,inhibition,0.09 µM,,Serotype 87,cytopathic effect / XTT,90%
COc1ccc([Se][Se]c2ccc(OC)cc2)cc1,Candida dubliniensis,,MFC,,,,broth dilution,16–64 µg/mL
COc1ccc2nc(NS(=O)(=O)C3C(=O)ONN3c3ccc(C)cc3)sc2c1,Aspergillus clavatus,,zone,250 µg/mL,,MTCC323,agar diffusion,24 mm
Nc1ccn(C[C@@H](CO)OCP(=O)(O)O)c(=O)n1,Adenovirus,HEL,EC50,,,TYPE 2,,2.1 µM
NC1CCN(c2c(F)cc3c(=O)c(C(=O)O)cn(C4CC4)c3c2Cl)C1,Staphylococcus aureus,,MIC90,,,20 strains (oxacillin-susceptible),,0.03 µg/mL
Nc1ncnc2c1ncn2CCOCP(=O)(O)O,Mouse cytomegalovirus,C1271,EC50,,,HPMPC-resistant,plaque count,2.3 µM
Nc1ccn(C[C@H]2COP(=O)(O)CO2)c(=O)n1,Adenovirus,HEL,EC50,,,TYPE 2,,4.1 µM
c1ccc([Se][Se]c2ccccc2)cc1,Candida dubliniensis,,MFC,,,CBS 7987,broth dilution,32 µg/mL
CC(C)(O/N=C(/C(=O)N[C@@H]1C(=O)N2C(C(=O)[O-])=C(C[n+]3ccccc3)CS[C@H]12)c1csc(N)n1)C(=O)O,Pseudomonas aeruginosa,,MIC,,,S10,,1 µg/mL
C[C@@H]1CN(c2c(F)c(N)c3c(=O)c(C(=O)O)cn(C4CC4)c3c2F)C[C@H](C)N1,Streptococcus pneumoniae,,MIC,,,Clinical isolate RT2,,8 µg/mL
O=C(O)P(=O)(O)O,Cytomegalovirus,HEL,EC50,,,DAVIS,cytopathic effect,20 µg/mL
Cc1ccc(N2NOC(=O)C2S(=O)(=O)Nc2ccc(-n3c(-c4cccc(Cl)c4)nc4ccccc4c3=O)cc2)cc1,Aspergillus clavatus,,zone,250 µg/mL,,MTCC323,agar diffusion,24 mm
Cc1cn([C@H]2C[C@H](F)[C@@H](CO)O2)c(=O)[nH]c1=O,Adenovirus,HEL,EC50,,,TYPE 2,,0.71 µM
Cc1cn(C[C@@H](CO)OCP(=O)(O)O)c(=O)[nH]c1=O,Cytomegalovirus,HEL,EC50,,,AD169,plaque count,70 µg/mL
NC(=O)c1nc(F)c[nH]c1=O,Influenza A virus,MDCK,EC50,,,H1N1 FM/1/47,plaque count,0.2 µg/mL
COc1ccc2c(O[C@@H]3C[C@H]4C(=O)N[C@]5(C(=O)O)C[C@H]5/C=C\CCCCC[C@H](NC(=O)OC5CCCC5)C(=O)N4C3)cc(-c3csc(NC(C)C)n3)nc2c1,Hepatitis C virus,1C,fold resistance,,D168V,Con1,luciferase,>410
O=c1ccn(CC(CO)OCP(=O)(O)O)c(=O)[nH]1,Cytomegalovirus,HEL,EC50,,,AD169,cytopathic effect,70 µg/mL
Cc1ccc(N2NOC(=O)C2S(=O)(=O)Nc2ccc(-n3c(-c4cccc([N+](=O)[O-])c4)nc4ccccc4c3=O)cc2)cc1,Aspergillus clavatus,,MIC,,,MTCC323,broth dilution,250 µg/mL
Nc1nc(N)c2ncn(CCOCP(=O)(O)O)c2n1,Cytomegalovirus,HEL,EC50,,,AD169,plaque count,10 µg/mL
CC(C)OC(=O)[C@H](C)N[P@](=O)(OC[C@H]1O[C@@](C#N)(c2ccc3c(N)ncnn23)[C@](C)(O)[C@@H]1OC(=O)C(C)C)Oc1ccccc1,Hepatitis C virus,1C,fold resistance,,Y93H,1b Con1,luciferase,0.33

Again, the opening 6 rows:

| smiles | species | cell line | measure | dose | mutations | strain | method | result |
|---|---|---|---|---|---|---|---|---|
| Cc1ccc(N2NOC(=O)C2S(=O)(=O)Nc2nc(-c3ccc([N+](=O)[O-])cc3)cs2)cc1 | Aspergillus clavatus |  | MIC |  |  | MTCC323 | broth dilution | 1000 µg/mL |
| O=C(O)P(=O)(O)O | Mouse cytomegalovirus | C1271 | EC50 |  |  | WILD TYPE | plaque count | 90 µM |
| Nc1ncc2ncn(CCOCP(=O)(O)O)c2n1 | Cytomegalovirus | HEL | EC50 |  |  | AD169 | plaque count | 200 µg/mL |
| Nc1nc2c(ncn2COC(COCP(=O)(O)O)COCP(=O)(O)O)c(=O)[nH]1 | Mouse cytomegalovirus | C1271 | EC50 |  |  | WILD TYPE | plaque count | 0.6 µM |
| C[C@@H]1[C@H](O)[C@@H](C)/C=C/C=C/CC/C=C/C=C/C=C/C=C/C(O[C@H]2O[C@H](C)[C@@H](O)[C@H](N)[C@@H]2O)CC2O[C@](O)(CC(O)C(O)CCC(O)CC(O)CC(O)CC(=O)O[C@H]1C)CC(O)C2C(=O)O | Aspergillus clavatus |  | zone | 250 µg/mL |  | MTCC323 | agar diffusion | 26 mm |
| Nc1nc2c(ncn2COC(CO)CO)c(=O)[nH]1 | Mouse cytomegalovirus | C1271 | EC50 |  |  | HPMPC-resistant | plaque count | 11 µM |